Measured values from several laboratories, pooled; numbers as filed in NIAID ChemDB.

All rows: whole-cell or culture tests; organism: Mycobacterium kansasii; endpoint: MIC

Neighbouring rows are from separate reports. Blank or dashed fields: not listed here.

{"SMILES": "O=c1oc2ccc(Br)cc2c(=S)n1-c1ccc(C(F)(F)F)cc1", "conditions": "14 d", "strain or isolate": "My 235/80", "result": "8 µM"}
{"SMILES": "N/C(=N\\N=C\\c1ccccc1)SCc1ccc(Br)cc1", "read by": "broth dilution", "conditions": "21 d", "strain or isolate": "6509/96", "result": "62.5 µM"}
{"SMILES": "CCC(C)c1ccc(-n2c(=S)oc3cc(Cl)ccc3c2=S)cc1", "read by": "broth dilution", "conditions": "21 d", "strain or isolate": "6509/96", "result": "2 µM"}
{"SMILES": "O=C(Nc1cccc(F)c1)c1cc(Cl)ccc1OS(=O)(=O)c1ccccc1", "conditions": "14 d", "strain or isolate": "6509/96", "result": "32 µM"}
{"SMILES": "N/C(=N\\N=C\\c1cc(Cl)cc(Cl)c1O)SCc1ccc(Br)cc1", "read by": "broth dilution", "conditions": "21 d", "strain or isolate": "ATCC 12478", "result": "32 µM"}
{"SMILES": "O=C(Oc1cc(Cl)ccc1C(=O)Nc1cccc(F)c1)c1cnccn1", "conditions": "14 d", "strain or isolate": "235/80", "result": "4 µM"}
{"SMILES": "O=C(N[C@@H](Cc1ccccc1)c1cnc(-c2ccc([N+](=O)[O-])cc2)[nH]1)OCc1ccccc1", "conditions": "7 d", "strain or isolate": "My 235/80", "result": "16 µM"}
{"SMILES": "COc1ccc2oc(=O)n(-c3ccc(Cl)c(Cl)c3)c(=S)c2c1", "conditions": "21 d", "strain or isolate": "6509/96", "result": "62.5 µM"}
{"SMILES": "O=C(Nc1ccc(Cl)c(Cl)c1)c1cc(Cl)ccc1O", "read by": "broth dilution", "conditions": "21 d", "strain or isolate": "6509/96", "result": "8 µM"}
{"SMILES": "C[C@@H](NC(=O)OCc1ccccc1)c1cnc(-c2ccc([N+](=O)[O-])cc2)[nH]1", "conditions": "14 d", "strain or isolate": "My 6509/96", "result": ">125 µM"}
{"SMILES": "O=C(Nc1cccc(Br)c1)c1ccc(Cl)cc1OS(=O)(=O)c1ccccc1", "conditions": "21 d", "strain or isolate": "235/80", "result": "62.5 µM"}
{"SMILES": "COc1ccc(/C=C/C2=NN(C(=N)N)C(c3ccc(OC)cc3)C2)cc1", "read by": "resazurin", "result": "3.57 µM"}
{"SMILES": "Cc1ccn2c(C(=O)NCc3ccc4c(c3)CCO4)c(C)nc2c1", "read by": "MTT", "strain or isolate": "Clinical isolate SHP", "result": "32 µg/mL"}
{"SMILES": "S=c1oc2ccc(Br)cc2c(=S)n1-c1ccc(Cl)c(Cl)c1", "conditions": "14 d", "strain or isolate": "6509/96", "result": "2 µM"}
{"SMILES": "O=C(NC1CCCCC1)N(C(=O)c1cnccn1)C1CCCCC1", "conditions": "14 d", "strain or isolate": "6509/96", "result": "500 µM"}
{"SMILES": "O=c1oc2ccc(Br)cc2c(=S)n1-c1cccc(F)c1", "conditions": "21 d", "strain or isolate": "6509/96", "result": "8 µM"}
{"SMILES": "O=C(Oc1cc(Cl)ccc1C(=O)Nc1cccc(Br)c1)c1ccccc1", "read by": "broth dilution", "conditions": "14 d", "strain or isolate": "235/80", "result": "4 µM"}
{"SMILES": "CCC(C)c1ccc(-n2c(=S)oc3ccc(Br)cc3c2=S)cc1", "read by": "broth dilution", "conditions": "14 d", "strain or isolate": "6509/96", "result": "4 µM"}
{"SMILES": "O=C(Oc1cc(Cl)ccc1C(=O)Nc1ccc(Br)cc1)c1ccccc1", "read by": "broth dilution", "conditions": "14 d", "strain or isolate": "235/80", "result": "4 µM"}
{"SMILES": "Cc1ccc(CS/C(N)=N/N=C/c2ccccc2)cc1", "read by": "broth dilution", "conditions": "21 d", "strain or isolate": "6509/96", "result": "62.5 µM"}
{"SMILES": "Cc1ccc2nc(C)c(C(=O)NCc3ccc(C(F)(F)F)cc3)n2c1", "read by": "MTT", "strain or isolate": "Clinical isolate 379", "result": "<0.06 µg/mL"}
{"SMILES": "COc1ccc2oc(=O)n(-c3ccc(Br)cc3)c(=S)c2c1", "conditions": "14 d", "strain or isolate": "My 235/80", "result": "32 µM"}
{"SMILES": "O=C(Nc1ccc(C(F)(F)F)cc1)c1cc(Cl)ccc1OS(=O)(=O)c1ccccc1", "conditions": "21 d", "strain or isolate": "235/80", "result": "125 µM"}
{"SMILES": "O=c1oc2ccc(Cl)cc2c(=S)n1-c1ccc(F)cc1", "conditions": "14 d", "strain or isolate": "My 235/80", "result": "16 µM"}
{"SMILES": "COC(=O)c1cnccn1", "conditions": "21 d", "strain or isolate": "6509/96", "result": "500 µM"}
{"SMILES": "COc1ccccc1/C=C/C1=NN(C(=N)N)C(c2ccccc2OC)C1", "read by": "resazurin", "result": "1.78 µM"}
{"SMILES": "CC[C@@H](C)[C@H](NC(=O)OCc1ccccc1)c1cnc(-c2ccccc2)[nH]1", "conditions": "21 d", "strain or isolate": "My 6509/96", "result": "32 µM"}
{"SMILES": "FC(F)(F)c1cc(-c2ccccc2)nc(N2N=C(/C=C/c3ccc(Cl)cc3)CC2c2ccc(Cl)cc2)n1", "read by": "resazurin", "result": "20.6 µM"}
{"SMILES": "COc1ccc2oc(=O)n(-c3ccc(C(F)(F)F)cc3)c(=S)c2c1", "conditions": "14 d", "strain or isolate": "My 235/80", "result": "32 µM"}
{"SMILES": "O=C(OCc1ccccc1)N1CCC[C@H]1c1cnc(-c2ccc([N+](=O)[O-])cc2)[nH]1", "conditions": "14 d", "strain or isolate": "My 235/80", "result": "125 µM"}
{"SMILES": "O=C(Oc1cc(Cl)ccc1C(=O)Nc1cccc(Cl)c1)c1ccccc1", "read by": "broth dilution", "conditions": "21 d", "strain or isolate": "6509/96", "result": "8 µM"}
{"SMILES": "O=C(Nc1cccc(Cl)c1)c1ccc(Cl)cc1OS(=O)(=O)c1ccccc1", "conditions": "7 d", "strain or isolate": "6509/96", "result": "125 µM"}
{"SMILES": "O=C(Oc1cc(Cl)ccc1C(=O)Nc1ccc(F)cc1)c1cnccn1", "conditions": "14 d", "strain or isolate": "235/80", "result": "4 µM"}
{"SMILES": "O=C(Oc1cc(Cl)ccc1C(=O)Nc1ccc(C(F)(F)F)cc1)c1ccccc1", "read by": "broth dilution", "conditions": "21 d", "strain or isolate": "235/80", "result": "4 µM"}
{"SMILES": "CC(C)[C@H](NC(=O)OCc1ccccc1)c1cnc(-c2ccc([N+](=O)[O-])cc2)[nH]1", "conditions": "14 d", "strain or isolate": "My 235/80", "result": "62.5 µM"}
{"SMILES": "O=C(Oc1ccc(Cl)cc1C(=O)Nc1ccc(Br)cc1)c1ccccc1", "read by": "broth dilution", "conditions": "14 d", "strain or isolate": "235/80", "result": "4 µM"}
{"SMILES": "N/C(=N\\N=C\\c1ccccc1O)SCc1ccc(Cl)cc1", "read by": "broth dilution", "conditions": "14 d", "strain or isolate": "6509/96", "result": "32 µM"}

For reference, 3 entries again:

SMILES	read by	conditions	strain or isolate	result
COc1ccc2oc(=O)n(-c3ccc(C(F)(F)F)cc3)c(=S)c2c1	-	14 d	My 235/80	32 µM
COC(=O)c1cnccn1	-	21 d	6509/96	500 µM
N/C(=N\N=C\c1cc(Cl)cc(Cl)c1O)SCc1ccc(Br)cc1	broth dilution	21 d	ATCC 12478	32 µM